Pooled drug test results. Numbers come from NIAID ChemDB, via PubChem.

Shared fields: enzyme or target tests; agent: Hepatitis C virus; protein: NS3 protease

Percent inhibition refers to the dose given; in toxicity tests it is the harm to the cells.

| compound | endpoint | dose | value |
|---|---|---|---|
| CC(C)C[C@H](NC(=O)[C@@H](Cc1ccc(O)cc1)NC(=O)[C@@H](N)CC(=O)O)C(=O)N[C@@H](CCC(=O)O)C(=O)N[C@@H](CC1CCCCC1)C(=O)N[C@@H](CS)C(=O)O | IC50 | - | 0.68 µM |
| CCC[C@H](NC(=O)[C@@H]1C[C@@H](Oc2cc(-c3ccccc3)nc3cc(OC)ccc23)C[C@H]1C(=O)N[C@H](C(=O)N[C@H](C(=O)OC)C1CCCCC1)C(C)C)C(=O)O | inhibition | 10 µM | 100% |
| CC(C)[C@H](NC(=O)[C@H](CCC(=O)O)NC(=O)[C@@H](N)CC(=O)O)C(=O)N[C@H](C(=O)N1CCC[C@H]1C(=O)NC(C)(C)B1O[C@@H]2CC3CC(C3(C)C)[C@]2(C)O1)C(C)C | Ki | - | >100 µM |
| CC(C)C[C@H](NC(=O)[C@H](NC(=O)[C@@H](N)CC(=O)O)C(C)C)C(=O)N[C@@H](CCC(=O)O)C(=O)N[C@@H](CC1CCCCC1)C(=O)N[C@@H](CS)C(=O)O | IC50 | - | 0.47 µM |
| CC[C@H](NC(=O)[C@H](CC(C)C)NC(=O)[C@@H](NC(=O)[C@@H](NC(=O)[C@H](CC(=O)O)CC(=O)[C@H](CCC(=O)O)NC(C)=O)C(C)C)C(C)C)C(=O)C(=O)NCc1ccccc1 | Ki | - | <1 µM |
| CCC[C@H](NC(=O)[C@H](CC1CCCCC1)NC(=O)[C@@H](NC(=O)[C@H](CC(C)C)NC(=O)[C@@H](CCC(=O)O)NC(=O)[C@H](CC(=O)O)NOC(=O)CCC(=O)O)[C@H](C)CC)C(=O)NS(=O)(=O)c1ccccc1 | Ki | - | 0.014 µM |
| CC[C@@H](C=O)NC(=O)[C@@H]1C[C@@H](OCc2ccccc2)CN1C(=O)[C@@H](NC(=O)C(OC)c1ccccc1)C(C)C | Ki | - | >100 µM |
| CC(C)C[C@H](NC(=O)[C@H](NC(=O)[C@@H](N)CC(=O)O)C(c1ccccc1)c1ccccc1)C(=O)N[C@@H](CCC(=O)O)C(=O)N[C@@H](CC1CCCCC1)C(=O)N[C@@H](CS)C(=O)O | IC50 | - | 0.276 µM |
| O=C(O)c1cc(F)c(CCNC(=O)[C@H](CC(F)F)NC(=O)[C@H]2C[C@@H](C3CCCC3)CN2C(=O)[C@@H](O)c2ccccc2)c(F)c1 | IC50 | - | >100 µM |
| CCCC(NC(=O)[C@H](CC1CCCCC1)NC(=O)[C@@H](NC(=O)[C@H](CC(C)C)NC(=O)[C@@H](CCC(=O)O)NC(=O)[C@H](CC(=O)O)NOC(=O)CCC(=O)O)[C@H](C)CC)C(=O)C(F)(F)C(F)(F)F | Ki | - | 0.12 µM |
| CN(C)c1cccc2c(S(=O)(=O)N(C(=O)CC(N)NC(=O)[C@H](CCC(=O)O)NC(=O)[C@@H](N)CC(=O)O)[C@@H](CCC(=O)O)C(=O)N[C@@H](CC3CCCCC3)C(=O)N[C@@H](CS)C(=O)O)cccc12 | IC50 | - | 0.4 µM |
| CC[C@H](NC(=O)[C@H](CC1CCCCC1)NC(=O)[C@@H](NC(=O)[C@H](CC(C)C)NC(=O)[C@@H](CCC(=O)O)NC(=O)[C@H](CC(=O)O)NC(C)=O)[C@H](C)CC)C(=O)C(=O)/C=C/c1nccs1 | Ki | - | 2.3 µM |
| O=C(O)c1cc(F)c(CCNC(=O)[C@H](CC(F)F)NC(=O)[C@H]2C[C@@H](C3CCCC3)CN2C(=O)C(O)Cc2ccccc2)c(F)c1 | IC50 | - | >100 µM |
| CC[C@@H](C=O)NC(=O)[C@@H]1C[C@@H](OCc2ccccc2)CN1C(=O)[C@@H](NC(=O)[C@H](Cc1ccc2ccccc2c1)NC(=O)c1cnccn1)C(C)C | Ki | - | 1–100 µM |
| CC[C@H](NC(=O)[C@H](CC1CCCCC1)NC(=O)[C@@H](NC(=O)[C@H](CC(C)C)NC(=O)[C@@H](CCC(=O)O)NC(=O)[C@H](CC(=O)O)NC(C)=O)[C@H](C)CC)C(=O)C(=O)/C=C/CCCC(C)C | Ki | - | 0.98 µM |
| CC[C@@H](C=O)NC(=O)[C@@H]1C[C@@H](OCc2ccccc2)CN1C(=O)[C@@H](NC(=O)C1CCCC1c1ccccc1)C(C)C | Ki | - | >100 µM |
| CCCC(=O)[C@H](CC)NC(=O)[C@H](CC1CCCCC1)NC(=O)[C@@H](NC(=O)[C@H](CC(C)C)NC(=O)[C@@H](CCC(=O)O)NC(=O)[C@H](CC(=O)O)NC(C)=O)[C@H](C)CC | Ki | - | 0.65 µM |
| CC[C@@H](C=O)NC(=O)[C@@H]1C[C@@H](NC(=O)c2ccc(Cl)c(Cl)c2)CN1C(=O)[C@@H](NC(=O)[C@@H](NC(=O)c1cnccn1)C(C)C)C(C)C | Ki | - | 1–100 µM |
| CC(=O)N[C@H](C(=O)N[C@H](C(=O)N1CC(Oc2ccnc3cc(Cl)ccc23)CC1C(=O)NC1(C(=O)O)CC1)C(C)C)C1CCCCC1 | IC50 | - | 0.8 µM |
| CC(C)C[C@H](NC(=O)[C@H](Cc1ccc(O)cc1)NC(=O)[C@@H](N)CC(=O)O)C(=O)N[C@@H](CCC(=O)O)C(=O)N[C@@H](CC1CCCCC1)C(=O)N[C@@H](CS)C(=O)O | IC50 | - | 0.135 µM |
| CC[C@@H](C=O)NC(=O)[C@H](CC(C)C)NC(=O)[C@@H](NC(=O)[C@@H](NC(=O)c1ccc(OC)nc1OC)C(C)C)C(C)C | Ki | - | 1–100 µM |
| CC(=O)N[C@H](C(=O)N[C@H](C(=O)N1C[C@H](Oc2cccc(Br)c2)C[C@H]1C(=O)NC1(C(=O)O)CC1)C(C)C)C1CCCCC1 | IC50 | - | 50 µM |
| CC[C@@H](C=O)NC(=O)[C@@H]1C[C@@H](OCc2ccccc2)CN1C(=O)[C@@H](NC(=O)[C@@H](NC(=O)CO)C(C)C)C(C)C | Ki | - | 1–100 µM |
| CC(=O)N[C@H](C(=O)N[C@H](C(=O)N1C[C@H](Sc2ccnc3c(C(F)(F)F)cccc23)CC1C(=O)NC1(C(=O)O)CC1)C(C)C)C1CCCCC1 | IC50 | - | 9 µM |
| CC[C@@H](C=O)NC(=O)[C@@H]1C[C@@H](OCc2ccccc2)CN1C(=O)[C@@H](NC(=O)C(O)(c1ccccc1)c1ccccc1)C(C)C | Ki | - | >100 µM |
| CC(=O)N[C@H](C(=O)N[C@H](C(=O)N1C[C@H](Oc2cccnc2)CC1C(=O)NC1(C(=O)O)CC1)C(C)C)C1CCCCC1 | IC50 | - | 190 µM |
| CCC[C@H](NC(=O)[C@@H]1C[C@@H](Oc2cc(-c3ccccc3)nc3cc(OC)ccc23)C[C@H]1C(=O)N[C@@H](C(=O)N[C@H](C(=O)OC)C1CCCCC1)C(C)C)C(=O)O | inhibition | 10 µM | 35% |
| CC(=O)N[C@H](C(=O)N[C@H](C(=O)N1C[C@H](Oc2ccc(-c3ccccc3)cc2)CC1C(=O)NC1(C(=O)O)CC1)C(C)C)C1CCCCC1 | IC50 | - | 35 µM |
| CC[C@@H](C=O)NC(=O)[C@@H]1C[C@@H](OCc2ccccc2)CN1C(=O)[C@@H](NC(=O)Cc1ccccc1[N+](=O)[O-])C(C)C | Ki | - | >100 µM |
| CC(=O)N[C@H](C(=O)N[C@H](C(=O)N1C[C@H](Oc2cccc(-c3ccccc3)c2)C[C@H]1C(=O)NC1(C(=O)O)CC1)C(C)C)C1CCCCC1 | IC50 | - | 6 µM |
| CC[C@@H](C)[C@H](NC(=O)[C@H](CC(C)C)NC(=O)[C@@H](CCC(=O)O)NC(=O)[C@H](CC(=O)O)NOC(=O)CCC(=O)O)C(=O)N[C@@H](CC1CCCCC1)C(=O)NC1(C(=O)c2nn[nH]n2)CC1 | Ki | - | 1.9 µM |

Repeating the first 5 entries:

compound,endpoint,dose,value
CC(C)C[C@H](NC(=O)[C@@H](Cc1ccc(O)cc1)NC(=O)[C@@H](N)CC(=O)O)C(=O)N[C@@H](CCC(=O)O)C(=O)N[C@@H](CC1CCCCC1)C(=O)N[C@@H](CS)C(=O)O,IC50,-,0.68 µM
CCC[C@H](NC(=O)[C@@H]1C[C@@H](Oc2cc(-c3ccccc3)nc3cc(OC)ccc23)C[C@H]1C(=O)N[C@H](C(=O)N[C@H](C(=O)OC)C1CCCCC1)C(C)C)C(=O)O,inhibition,10 µM,100%
CC(C)[C@H](NC(=O)[C@H](CCC(=O)O)NC(=O)[C@@H](N)CC(=O)O)C(=O)N[C@H](C(=O)N1CCC[C@H]1C(=O)NC(C)(C)B1O[C@@H]2CC3CC(C3(C)C)[C@]2(C)O1)C(C)C,Ki,-,>100 µM
CC(C)C[C@H](NC(=O)[C@H](NC(=O)[C@@H](N)CC(=O)O)C(C)C)C(=O)N[C@@H](CCC(=O)O)C(=O)N[C@@H](CC1CCCCC1)C(=O)N[C@@H](CS)C(=O)O,IC50,-,0.47 µM
CC[C@H](NC(=O)[C@H](CC(C)C)NC(=O)[C@@H](NC(=O)[C@@H](NC(=O)[C@H](CC(=O)O)CC(=O)[C@H](CCC(=O)O)NC(C)=O)C(C)C)C(C)C)C(=O)C(=O)NCc1ccccc1,Ki,-,<1 µM

Blank or dashed fields: not listed here. ICn: concentration for n% inhibition. a–b is a range or a potency band. Rows are shuffled and stem from different studies.